Compound potency records, mixed from different reports. Data source: NIAID ChemDB in PubChem.

All rows: host cell toxicity; cell line: HFF; read-out: CC50

Neighbouring rows are from separate reports.

| structure | read by | result |
|---|---|---|
| O=c1[nH]c(=O)n([C@H]2C[C@H](O)[C@@]3(CO)CC23)cc1I |  | >200 µM |
| CCSCc1c(Cl)nc2ccc(Cl)cn12 | visual reading | 100 µM |
| CC(C)[C@H](N)C(=O)N[C@H](C(=O)OCC(COC(=O)[C@@H](NC(=O)[C@@H](N)C(C)C)C(C)C)OCn1cnc2c(=O)[nH]c(N)nc21)C(C)C |  | ≥113 µM |
| O=C(NCc1ccc(Cl)cc1)c1c[nH]c2c(F)cc(CCCO)cc2c1=O |  | >50 µM |
| OCCSCc1c(Cl)nc2ccc(Cl)cn12 | visual reading | >100 µM |
| OCC(CO)OCn1c(Br)nc2cc(Cl)c(Cl)cc21 | visual reading | >100 µM |
| CC(C)CSc1nc(N)nc2c1ncn2/C=C1/C[C@@H]1CO | neutral red | >300 µM |
| O=c1ccn([C@H]2C[C@H](O)[C@]3(CO)C[C@H]23)c(=O)[nH]1 |  | >100 µg/mL |
| NC(=S)c1cn(Cc2ccccc2)c2ncnc(N)c12 |  | >32 µM |
| CC(=O)OCCOCn1ccc2c(Cl)nc(Cl)nc21 |  | 100 µM |
| Cc1ccc2ncnc(Nc3ccc(Cl)c(Cl)c3)c2c1 |  | 2.5 µM |
| Nc1nc2c(Cl)c(Cl)ccc2n1COCCO | visual reading | >100 µM |
| CC(C)c1ccc(O)c(O)c(=O)c1 | MTT | >100 µM |
| CC(C)[C@H](N)C(=O)NCC(=O)OCC(COC(=O)CNC(=O)[C@@H](N)C(C)C)OCn1cnc2c(=O)[nH]c(N)nc21 |  | ≥126 µM |
| Cc1ccc(CNC(=O)[C@H](CCCCNC(=O)OCc2ccccc2)NC(=O)[C@H](CC2CCCCC2)NC(=O)Cc2cccnc2)cc1 | resazurin | >100 µM |
| CN(C)c1nc2cc(Cl)c(Cl)cc2n1COC(CO)CO | visual reading | >100 µM |
| Cc1ccc(CNC(=O)[C@H](CCc2ccccc2)NC(=O)[C@@H](N)CCc2ccccc2)cc1 | resazurin | >50 µM |
| C=C(C)[C@@H]1CCc2c(O)c(O)c(=O)cc(C)c2C1 | neutral red | 6.7 µM |
| CSc1nc(N)nc2c1ncn2/C=C1/C[C@@H]1CO | neutral red | >300 µM |
| CCN(C)c1ccc(Oc2ccc(O)cc2)cc1 | XTT | 95 µM |
| Brc1ccc(Nc2ncnc3ccccc23)cc1 |  | 2 µM |
| O=c1[nH]c(=O)n(COCCO)nc1Cc1ccc(Cl)cc1 |  | >100 µM |
| CNc1cc2c(=O)c(C(=O)O)cn(C)c2cc1N1CCN(c2cccc(C(F)(F)F)c2)CC1 | MTT | 54.1 µM |
| CC(C)Nc1nc(N)nc2c1ncn2/C=C1/C[C@@H]1CO |  | >365 µM |
| COc1ccc(Cc2nn(COC(CO)CO)c(=O)[nH]c2=O)cc1 |  | >100 µM |
| Cc1cc(C)c(OC(=O)c2ccc(Cl)cc2)c(=O)c(C)c1 | MTT | >100 µM |
| N#Cc1c[nH]c2ncnc(N)c12 |  | 10 µM |
| CCCCCCCCCCCCOCCCOP1(=O)CO[C@@H](Cn2ccc(N)nc2=O)CO1 |  | 63 µM |
| OCCOCc1c(Cl)nc2cc(Cl)c(Cl)cn12 | visual reading | 100 µM |
| Cc1ccc(Cc2nn(COCCO)c(=O)[nH]c2=O)cc1 |  | >100 µM |
| COC(C)c1cn([C@H]2C[C@H](O)[C@@H](CO)O2)c(=O)[nH]c1=O |  | >195 µM |
| CCCCCOc1nc(N)nc2c1ncn2/C=C1/C[C@@H]1CO | neutral red | >300 µM |
| OCC1OC(n2c(Cl)cc3cc(Cl)c(Cl)cc32)C(O)C1O | visual reading | >100 µM |
| C=CCOc1nc(N)nc2c1ncn2/C=C1/C[C@@H]1CO |  | >366 µM |
| [N-]=[N+]=NC(CI)c1cn([C@H]2C[C@H](O)[C@@H](CO)O2)c(=O)[nH]c1=O |  | 76 µM |
| COC(=O)C(Cc1c[nH]c2ccccc12)NP(=O)(O)OCC1C/C1=C/n1cnc2c(N)ncnc21 |  | 90 µM |
| CC(C)COc1nc(N)nc2c1ncn2/C=C1/C[C@@H]1CO | neutral red | >300 µM |
| Nc1nc2c(ncn2/C=C2/C[C@@H]2CO)c(=O)[nH]1 |  | 390 µM |
| OC[C@H]1O[C@@H](c2cc(Cl)nc3cc(Cl)c(Cl)cc23)C(O)C1O |  | 32 µM |
| OCCOCn1c(Br)nc2c(Cl)c(Cl)ccc21 | visual reading | >100 µM |
| Cc1ccc(CNC(=O)[C@@H](NC(=O)[C@H](CCc2ccccc2)NC(=O)[C@H](CCc2ccccc2)N(C)Cc2cnccn2)C(C)C)cc1 | resazurin | 61 µM |
| CCCCCCCCCCCCCCCCCCOC[C@H](COP(=O)(O)CO[C@H](CO)Cn1ccc(N)nc1=O)OCc1ccccc1 |  | 47 µM |
| OC[C@H]1O[C@@H](n2c(Cl)nc3cc(Cl)c(Cl)cc32)[C@H](O)[C@@H]1O | visual reading | 238 µM |
| Nc1nc2c(Cl)cc(Cl)cc2n1COCCO | visual reading | 100 µM |
| CCCCSc1nc(N)nc2c1ncn2/C=C1/C[C@@H]1CO | neutral red | >300 µM |
| O=c1[nH]c(=O)n(COC(CO)CO)nc1Cc1ccc(O)cc1 |  | >100 µM |
| Clc1cc2nc(Cl)c(CSCc3ccccc3)n2cc1Cl | visual reading | 100 µM |
| COc1nc(N)nc2c1ncn2/C=C1/C[C@@H]1CO | neutral red | >300 µM |
| O[C@@H]1[C@H](O)[C@H](O)CO[C@H]1n1c(Br)nc2cc(Cl)c(Cl)cc21 |  | 179 µM |
| CNc1nc2c(Cl)c(Cl)ccc2n1COCCO | visual reading | >100 µM |
| O=C(NCc1ccc(Cl)cc1)c1c[nH]c2c(F)cccc2c1=O |  | >50 µM |
| C=CCOCc1c(Cl)nc2ccc(Cl)cn12 | visual reading | 100 µM |
| OC[C@H]1O[C@@H](n2c(Br)nc3cc(Cl)c(Cl)cc32)[C@H](O)[C@@H]1O | neutral red | 170 µM |
| [N-]=[N+]=NC(CBr)c1cn(CCC(CO)CO)c(=O)[nH]c1=O |  | >270 µM |
| Cc1cn([C@@H]2C[C@H](CO)[C@@H](O)C2)c(=O)[nH]c1=O |  | >10 µg/mL |
| O=C(NCc1ccc(Cl)cc1)c1c[nH]c2c(F)cccc2c1=O |  | >100 µM |
| CCCCCCCCCCCCCCCCOP(=O)(O)CO[C@H](CO)Cn1ccc(N)nc1=O |  | >157 µM |
| O=c1[nH]c(=O)n(COCCO)nc1Cc1ccc(O)cc1 |  | >100 µM |
| Nc1nc(NCC2CC2)c2ncn(/C=C3/C[C@@H]3CO)c2n1 |  | >349 µM |
| Nc1cc2c(=O)c(C(=O)O)cn(C3CC3)c2cc1N1CCN(c2ccccn2)CC1 | MTT | 400.8 µM |
| Cc1ccc(CNC(=O)[C@@H](NC(=O)[C@H](CCc2ccccc2)NC(=O)[C@H](CCc2ccccc2)NCc2cnccn2)C(C)C)cc1 | resazurin | >50 µM |
| CCCCCCCC/C=C\CCCCCCCOCCOP1(=O)CO[C@@H](Cn2ccc(N)nc2=O)CO1 |  | 34 µM |
| CN(C)c1cc2c(=O)c(C(=O)O)cn(C)c2cc1N1CCN(c2ccccn2)CC1 | MTT | 350 µM |
| CCCOc1nc(N)nc2c1ncn2/C=C1/C[C@@H]1CO |  | 363 µM |
| CCC(CO)n1cc(C(=O)O)c(=O)c2cc(N)c(N3CCN(c4ccccn4)CC3)cc21 | MTT | 128 µM |
| CCOc1ccc(-c2c3cc(O)c(=O)cc-3oc3cc(O)c(O)cc23)cc1 | MTT | >100 µM |

The first 3 rows once more:

structure	read by	result
O=c1[nH]c(=O)n([C@H]2C[C@H](O)[C@@]3(CO)CC23)cc1I		>200 µM
CCSCc1c(Cl)nc2ccc(Cl)cn12	visual reading	100 µM
CC(C)[C@H](N)C(=O)N[C@H](C(=O)OCC(COC(=O)[C@@H](NC(=O)[C@@H](N)C(C)C)C(C)C)OCn1cnc2c(=O)[nH]c(N)nc21)C(C)C		≥113 µM

CCn: concentration that lowers growth or viability of the cells by n%. Blank or dashed fields: not listed here.